These results are taken from patent US20120065103A1, “Prolyl Endopeptidase Probes” (priority 2010, published 2012).

The data set deals with Aspergillus fumigatus infected and uninfected guinea pig broncheoaveolar lavage fluid. Kind of data set: Screening probes against Aspergillus fumigatus infected and uninfected guinea pig BALF (Table 2). The data set is classed as biochemical. Conditions: for Specificity: negative = fold change less than 3; for Sensitivity: positive = fold change 3 or greater. The text has this:
Methods: Guinea pig inhalation model comprises neutropenia by cortisone acetate and cyclophosphamide (days −2 and +3), 1.2×10^8 conidia/mL nebulized AF in inhalation chamber, and serum and BALF obtained at predetermined time points; Vallor et al. Antimicrob. Ag. Chemother. 2008, 52.
Table 2 Legend. Variable region (Xaa—Yaa—Zaa) of the top 6 peptide probes are all listed in single amino acid code; AF293 and CEA10 are the two strains of Aspergillus fumigatus infected guinea pig BALF samples screened in this study.
N stands for number of guinea pig BALF samples screened against the given peptide probe. Guinea pig infected and uninfected samples with very low background (t=0 hour) and end point values (t=6 hour) (i.e., no greater than 100 units difference between t=0 hour and t=6 hour) were not selected for the statistical calculations.
Mean fold change values is the average of fluorescence fold change calculated for each guinea pig sample screened against respective peptide probe. Fluorescence fold change values are calculated according to the formula:
Fold Change=Fluorescence measured at time t=6 hour/Fluorescence measured at time t=0 hour.
* Fold change values for these peptide probes were calculated at time t=3 hour as the end point value.
SD corresponds to standard deviation calculated for the given probe screened against the respective BALF sample.
Percentage fluorescence efficiency (% FE) is calculated for each probe as follows, % FE=100 * [(Fold changeInfected BALF-Fold changeUninfected BALF)/Fold changeuninfected BALF] Fold change values are all the mean fold change values.
P values are calculated with two tailed student t-test with two sample unequal variance for each peptide probe screened against respective infected and uninfected BALF samples. […]

Where [1] appears, read: strain AF293, end point t=3 hour.
[2] abbreviates: strain CEA10, end point t=3 hour.

Substance MeOCGly-GGPFPGG Dap(DNP)KK-NH2 yielded a Specificity (strain AF293, t=6 hour) of 0.91 and a Specificity (strain CEA10, t=6 hour) of 0.75. For the same substance, the Sensitivity reads like this: (strain AF293, t=6 hour) 0.60; (strain CEA10, t=6 hour) 0.80.

Take MeOCGly-GGPHPGG Dap(DNP)KK-NH2: for the setting “strain AF293, t=6 hour”, the Specificity is given as 0.91 and the Sensitivity was 0.41. Moreover, where the note is “strain CEA10, t=6 hour”, the Specificity came out at 0.55 and the Sensitivity is given as 0.80.

Consider MeOCGly-GGPNPGG Dap(DNP)KK-NH2, for which the Specificity is, setting by setting: under setting [1], 0.97; under setting [2], 0.42. Moreover, the Sensitivity is, setting by setting: under setting [1], 0.69; under setting [2], 0.95.

As for MeOCGly-GGPNPNPGG Dap(DNP)KK-NH2, the Specificity reads like this: (strain AF293, t=6 hour) 0.68; (strain CEA10, t=6 hour) 0.40. Besides, the Sensitivity is recorded as 0.75 (strain AF293, t=6 hour) and 0.83 (strain CEA10, t=6 hour).

The substance MeOCGly-GGPSPGG Dap(DNP)KK-NH2 displayed a Specificity (strain AF293, t=6 hour) of 0.64 and a Specificity (strain CEA10, t=6 hour) of 0.30. For the same substance, the Sensitivity was found to be 0.75 (strain AF293, t=6 hour) and 0.91 (strain CEA10, t=6 hour).
